These results are taken from paper PMC4154654 (PLoS Neglected Tropical Diseases, 2014).

In the series the test system is cAMP-activated Cl− secretion in T84 cells. Put plainly: Short-circuit current (Isc) measurement of forskolin-induced cAMP-activated Cl− secretion across T84 cell monolayers.

`O=C(O)c1ccc(/C=C2\SC(=S)N(c3cccc(C(F)(F)F)c3)C2=O)cc1` [CFTRinh-172]: the “effect on cAMP-activated Cl− secretion elicited by forskolin” value (T84 monolayers, Isc) is “completely abolished”.
Turning to `O=C(O)Cc1ccccc1Nc1c(Cl)cccc1Cl` [diclofenac], for the setting “Homo sapiens, T84, read-out: IC50, inhibition of cAMP-activated Cl− secretion”, the concentration for half-maximal inhibition (IC50) was approximately 20 µM. Further, the “inhibition of cAMP-activated Cl− secretion at 200 µM” value (T84 monolayers, forskolin, 200 µM) is “almost complete inhibition”. Also, the “effect of CYP inhibition on the inhibition of cAMP-activated Cl− secretion” value (pretreatment with 1-aminobenzotriazole (1-ABT; 1 mM)) was “virtually no effect”.

As usually defined, the IC50 is the concentration that gives 50% inhibition.
